Pooled drug test results. Numbers come from NIAID ChemDB, via PubChem.

Shared fields: tests in culture; agent: Mycobacterium tuberculosis

Percent inhibition refers to the dose given; in toxicity tests it is the harm to the cells. Blank or dashed fields: not listed here. Two numbers with a dash give a range or band. ECn: concentration that inhibits the pathogen or its effect by n%. MIC50, MIC90 and the like: level of inhibition, or share of isolates inhibited. MIC bound: limit read from a one-dose screen. Lines come from different laboratories, so protocols vary.

smiles | tested at | strain | cells | method | endpoint | value
CO/N=C(/C(=O)N[C@@H]1C(=O)N2C(C(=O)O)=C(COC(N)=O)CS[C@H]12)c1ccco1 |  | H37Ra |  |  | MIC | 64 µg/mL
Clc1ccc(-c2c(C(c3ccccc3)n3ccnc3)cnn2-c2ccccc2)cc1 |  | ATCC 27294 |  |  | MIC50 | 25.3 µM
CO[C@H]1/C=C/O[C@@]2(C)Oc3c(C)c(O)c4c(O)c(c(/C=N/N5CCN(C)CC5)c(O)c4c3C2=O)NC(=O)/C(C)=C\C=C\[C@H](C)[C@H](O)[C@@H](C)[C@@H](O)[C@@H](C)[C@H](OC(C)=O)[C@@H]1C |  | INH-r |  | resazurin | MIC | 0.05–0.1 µg/mL
O=C(/C=C/C(=O)N1C/C(=C\c2ccccc2)C(=O)/C(=C/c2ccccc2)C1)Nc1ccc(Cl)c(Cl)c1 |  | H37Rv |  |  | EC50 | <6.25 µg/mL
c1ccc(Oc2ccc(-c3nnc(-c4ccncc4)o3)cc2)cc1 |  | H37Rv |  | resazurin | MIC | 1.4 µg/mL
Oc1cccc2cccnc12 |  | 2 strains |  |  | MIC | 6 µM
C=C[C@@]1(C)C=C2CC[C@@H]3[C@@](C)([C@H](O)CC(=O)[C@@]3(C)CC)[C@H]2C[C@H]1O |  |  |  | broth dilution | MIC90 | 12 µg/mL
O=c1c2c3c(sc2nc2n1NC=NN2)CCCC3 |  | H37Rv |  | resazurin | MIC bound | >6.25 µg/mL
CC1COc2c(N3CCN(C)CC3)c(F)cc3c(=O)c(C(=O)O)cn1c23 |  | ATCC 35828 (pyrazinamide-resistant) |  |  | MIC90 | 2.8 µM
Cc1cn([C@H]2C[C@H](Br)[C@@H](CO)O2)c(=O)[nH]c1=O |  | H37Ra |  |  | EC50 | 7.5 µg/mL
CC[C@H](CC[C@@H](C)[C@H]1CC[C@H]2[C@@H]3C(=O)C=C4C[C@@H](O)CC[C@]4(C)[C@H]3CC[C@]12C)C(C)C |  |  |  | broth dilution | MIC90 | 4.6 µg/mL
CCCCCCCC/C=C/CCCCCC1CCCC(C)N1 |  | PZA-R |  |  | MIC | 6.3 µg/mL
NNC(=O)c1ccncc1 |  | PMH29 |  |  | MIC | 0.025 µg/mL
O=C1c2ccccc2-c2nc3ccccc3nc21 |  | H37Rv |  | resazurin | MIC | 6.25 µg/mL
O=C(/C=C/C(=O)N1C/C(=C\c2ccccc2)C(=O)/C(=C/c2ccccc2)C1)Nc1ccc(Cl)cc1 |  | H37Rv |  |  | EC50 | >6.25 µg/mL
COc1ccc(CC[N+](=O)[O-])cc1 |  | BCG |  |  | MIC | >100 µg/mL
Clc1ccccc1-c1c(C(c2ccccc2)n2ccnc2)cnn1-c1ccccc1 |  | ATCC 27294 |  |  | MIC90 | >100 µM
NNC(=O)/C=C/c1ccc(Br)cc1 |  | BCG |  |  | MIC | 5 µg/mL
CCC(CO)NC(=O)CO |  |  |  | broth dilution | MIC90 | 29.5 µg/mL
OC[C@H]1O[C@@H](n2cnc3c2nnn2ccnc32)[C@H](O)[C@@H]1O | 12.5 µg/mL | H37Rv |  | BACTEC | inhibition | 0%
NNC(=O)c1ccncc1 |  | 92-0492 (MDR) |  |  | MIC | 5 µg/mL
Cc1cc(N(C)C)nc2cc(N(C)C)ccc12 | 12.5 µg/mL | H37Rv |  | BACTEC | inhibition | 92%
CCCCCCCC(=O)C1CC(C)C(O)C(C(=O)O)C1 |  |  |  | broth dilution | MIC90 | 7.1 µg/mL
CC[C@@H](CO)NCCN[C@@H](CC)CO |  | 90-0145 (DRUG-SUS) |  |  | MIC | 1 µg/mL
COc1cc(C(=O)NN=C2c3ccccc3-c3ccccc32)cc(OC)c1OC |  | H37Rv |  | BACTEC | MIC bound | >12.5 µg/mL
Nc1ccccc1C(=O)Nc1ccccc1 |  | My 331/88 |  |  | MIC | >1000 µM
CCn1cc(C(=O)O)c(=O)c2cc(F)c(N3CCN(CN4C(=O)/C(=N\c5ncc(Cc6cc(OC)c(OC)c(OC)c6)c(N)n5)c5cc(Br)ccc54)C(C)C3)c(F)c21 |  | H37Rv |  |  | MIC | 3.13 µg/mL
Fc1ccc(-c2c(C(c3ccccc3)n3ccnc3)cnn2-c2ccc(F)cc2F)cc1 |  | ATCC 35820 (streptomycin-resistant) |  |  | MIC50 | ≥100 µM
NNC(=O)/C=C/c1ccccc1 |  | BCG |  |  | MIC | 1 µg/mL
Cc1ccc(C(=O)/C=C/c2ccc(C(=O)N3C/C(=C\c4ccccc4)C(=O)/C(=C/c4ccccc4)C3)cc2)cc1 |  | H37Rv |  |  | EC50 | >6.25 µg/mL
NNC(=O)c1ccncc1 |  | ATCC 35822 (isoniazid-resistant) |  |  | MIC50 | ≥100 µM
C/C=C/C/C=C/CCC(=O)[C@H]1O[C@H]1C(N)=O |  | H37Rv |  |  | MIC | 5 µg/mL
C=C(C)[C@@H]1CC[C@]2(C(=O)O)CC[C@]3(C)C(CCC4[C@@]5(C)CC[C@@H](O)[C@@](C)(C(=O)O)C5CC[C@]43C)C12 |  | H37Rv |  | resazurin | MIC90 | 220 µg/mL
COc1ccc(/C=C/Br)cc1 |  | BCG |  |  | MIC | >100 µg/mL
NC(=S)Nc1ccc(S(N)(=O)=O)cc1 |  | A67 |  |  | MIC | 500 µM
CC1(C)S[C@@H]2[C@H](NC(=O)[C@H](N)c3ccc(O)cc3)C(=O)N2[C@H]1C(=O)O |  | H37Ra |  |  | MIC | 256 µg/mL
N#Cc1ccc(/C=C/C(=O)NN)cc1 |  | BCG |  |  | MIC | 5 µg/mL
CC(C)COc1ccc(NC(=S)Nc2ccc(-c3ccccn3)cc2)cc1 |  | H37Rv |  |  | MIC | 78 µg/mL
O=C(Nc1ccc2[nH]c(C(=O)N3CC(CCl)c4c3cc([N+](=O)[O-])c3ccccc43)cc2c1)c1cc2ccccc2o1 | 6.25 µg/mL | H37Rv |  | BACTEC | inhibition | 5%
O=C1/C(=C/c2ccccc2)CN(C(=O)c2ccc([N+](=O)[O-])cc2)C/C1=C\c1ccccc1 |  | H37Rv |  |  | EC50 | >6.25 µg/mL
N#CCCN(CCCN(C(=O)Nc1ccc(NC(=O)N(CCCN(CCC#N)C(N)=O)c2ccccc2)cc1)c1ccccc1)C(N)=O | 6.25 µg/mL | H37Rv |  | resazurin | inhibition | 11%
Nc1ccccc1C(=O)Nc1ccc(Br)cc1 |  | My 331/88 |  |  | MIC | 125 µM
COc1cc(Cc2cnc(/N=C3\C(=O)N(CN4CCN(c5c(F)cc6c(=O)c(C(=O)O)cn(C7CC7)c6c5OC)CC4C)c4ccc(Br)cc43)nc2N)cc(OC)c1OC |  | H37Rv |  |  | MIC | 3.13 µg/mL
NC(=S)Nc1ccccc1 |  | A67 |  |  | MIC | 1000 µM
NCCCCCCCCCCN |  | H37Rv |  |  | MIC | 3.12 µg/mL
CCC1C(=O)OC2OC(c3ccccc3)(c3ccccc3)NC21 | 12.5 µg/mL | H37Rv |  | BACTEC | inhibition | -5%
Fc1ccc(-n2ncc(C(c3ccccc3)n3ccnc3)c2-c2ccccc2)cc1 |  | ATCC 27294 |  |  | MIC90 | >100 µM
CC(NC(=O)OCc1ccccc1)C(=O)NC(CO)C(N)=O |  | H37Rv |  | BACTEC | MIC | ≥12.8 µg/mL
CC[C@@H](CO)NCCN[C@@H](CC)CO |  | U113 |  |  | MIC | 16 µg/mL
NCC[C@H](O)C(=O)N[C@@H]1C[C@H](N)[C@@H](O[C@H]2O[C@H](CN)[C@@H](O)[C@H](O)[C@H]2O)[C@H](O)[C@H]1O[C@H]1O[C@H](CO)[C@@H](O)[C@H](N)[C@H]1O |  | 92-0492 (MDR) |  |  | MIC | 1 µg/mL
COC1=C(C(C)C)C(=O)C2=C(C1=O)C1(C)CCCC(C)(C)C1=CC2OC(C)=O |  |  |  | broth dilution | MIC90 | 0.98 µg/mL
COCC12CC(CC1=O)C1C2ON2c3ccccc3C(=O)C12c1ccccc1 | 6.25 µg/mL | H37Rv |  | resazurin | inhibition | 25%
Fc1ccccc1-c1c(C(c2ccccc2)n2ccnc2)cnn1-c1ccccc1F |  | ATCC 35828 (pyrazinamide-resistant) |  |  | MIC90 | ≥100 µM
CC(=O)O[C@H]1CC2C(C)(C)OC3CC(=O)OCC32C2CC[C@@]3(C)C(=CC[C@@H]3c3ccoc3)[C@]21C |  | H37Rv |  | BACTEC | MIC | ≥12.5 µg/mL
Clc1ccc(-c2c(C(c3ccccc3)n3ccnc3)cnn2-c2ccc(Cl)cc2)cc1 |  | ATCC 27294 |  |  | MIC50 | 6.1 µM
CN(C)c1ccc2[nH]c3c(C([NH3+])=O)cc(=O)c(=O)c=3oc2c1.[Cl-] |  | H37Rv |  | BACTEC | MIC bound | >12.5 µg/mL
CC1=CC[C@]2(C)CC[C@]3(C)C(=O)C=C(C(C)C)[C@@H]3[C@H]2CC1 | 6.25 µg/mL | H37Rv |  | resazurin | inhibition | 25%
COc1cccc(/C=C/C(=O)NN)c1OC |  | BCG |  |  | MIC | 20 µg/mL
CC1=CC[C@]2(C)CC[C@@]3(C)[C@H](C(C(C)C)=C[C@@H]3O)[C@H]2CC1 | 6.25 µg/mL | H37Rv |  | resazurin | inhibition | 50%
O=C1/C(=C/c2ccccc2)CN(C(=O)c2ccc(/C=C/C(=O)c3ccc([N+](=O)[O-])cc3)cc2)C/C1=C\c1ccccc1 |  | H37Rv |  |  | EC50 | >6.25 µg/mL
[N-]=[N+]=CC(=O)OC[C@H](N)C(=O)O |  |  |  | broth dilution | EC50 | <1 µg/mL
CSC(SSC(S)C(N)=O)C(N)=O |  | H37Rv |  |  | MIC | 60 µM
CCOC(=O)C1CCCCC12Nc1cccc3cccc(c13)N2 |  | H37Rv |  | BACTEC | MIC bound | >12.8 µg/mL
c1ccc(Oc2ccc(-c3nnc(-c4cccnc4)o3)cc2)cc1 |  | H37Rv |  | resazurin | MIC | 1.4 µg/mL
O=C(O)CC1CC(O)CC/C1=N\Nc1ccc([N+](=O)[O-])cc1[N+](=O)[O-] |  | H37Rv |  | BACTEC | MIC bound | >12.5 µg/mL
CCCCCCCCCCCCOCc1cn([C@H]2C[C@H](O)[C@@H](CO)O2)c(=O)[nH]c1=O |  | MS-115 | VERO Cell line |  | MIC99 | 50 µg/mL
NC(=S)Nc1ccccc1C(=O)O |  | A67 |  |  | MIC | 500 µM
CCCCCCCCCCCCOCc1cn([C@H]2C[C@H](N)[C@@H](CO)O2)c(=O)[nH]c1=O |  | MS-115 | VERO Cell line |  | MIC99 | 20 µg/mL
O=c1oc2ccccc2c(=O)n1-c1ccc([N+](=O)[O-])cc1 |  | My 331/88 |  |  | MIC | 16 µM
C[C@H](NC(=O)OCc1ccccc1)C(=O)N1CCC[C@H]1C(=O)NCC(=O)Oc1ccc([N+](=O)[O-])cc1 |  | H37Rv |  | BACTEC | MIC bound | >12.5 µg/mL
O=C1/C(=C\c2ccccc2)CN(C(=O)c2ccc(/C=C/C(=O)c3ccccc3)cc2)C/C1=C/c1ccccc1 |  | H37Rv |  |  | EC50 | >6.25 µg/mL
Cc1c(CN2CCN(C)CC2)cc(-c2ccc(Cl)cc2)n1-c1ccc(Cl)cc1 |  | CIP6431 |  |  | MIC | 1.5 µg/mL
Cc1ccc(-n2c(=O)oc3ccccc3c2=O)cc1 |  | My 331/88 |  |  | MIC | 62 µM
NCCCCCCCCCCCCN |  | H37Rv |  |  | MIC | 2.5 µg/mL
CC1N(C)CCC1(C)CN1c2ccccc2Sc2ccccc21.Cl | 12.5 µg/mL | H37Rv |  | BACTEC | inhibition | 95%
CCCCCCCCCCCCc1cn(Cc2cn([C@H]3C[C@H](O)[C@@H](CO)O3)c(=O)nc2N)nn1 |  | MS-115 | VERO Cell line |  | MIC99 | 10 µg/mL
COc1ccc(C2N(NC(=O)c3ccncc3)C(=O)CS2(=O)=O)cc1F |  | H37Rv | VERO |  | MIC | 0.273 µg/mL
CCCCCCCCCCc1cn(Cc2cn([C@H]3C[C@H](O)[C@@H](CO)O3)c(=O)[nH]c2=O)nn1 |  | MS-115 | VERO Cell line |  | MIC99 | 10 µg/mL
C[C@]12CCC(=O)C=C1CCC1[C@@H]2C(=O)C[C@@]2(C)[C@H]1CC[C@]2(O)C(=O)Cn1c(=O)[nH]cc(F)c1=O | 6.25 µg/mL | H37Rv |  | resazurin | inhibition | 66%
COc1ccc(C2CC(=O)NN2)cc1 |  | BCG |  |  | MIC | >100 µg/mL
NC(=S)Nc1ccccc1N |  | A67 |  |  | MIC | 7.81 µM
Oc1cc(O)c2c(c1)O[C@@H](c1ccc(O)c(O)c1)[C@H](O)C2 | 12.8 µg/mL | H37Rv |  | BACTEC | inhibition | 9%
CCn1cc(C(=O)OCC(=O)O[C@H]2[C@H](C)[C@H](O)[C@H](C)[C@@H](O)[C@@H](C)/C=C/C=C(/C)C(=O)Nc3c(/C=N/N4CCN(C)CC4)c(O)c4c5c(c(C)c(O)c4c3O)O[C@](C)(O/C=C/[C@H](OC)[C@H]2C)C5=O)c(=O)cc1N1CCN(C)CC1 |  |  |  |  | MIC | <0.2 µg/mL

The first 5 rows once more:

CO/N=C(/C(=O)N[C@@H]1C(=O)N2C(C(=O)O)=C(COC(N)=O)CS[C@H]12)c1ccco1 ; strain: H37Ra ; endpoint: MIC ; value: 64 µg/mL
Clc1ccc(-c2c(C(c3ccccc3)n3ccnc3)cnn2-c2ccccc2)cc1 ; strain: ATCC 27294 ; endpoint: MIC50 ; value: 25.3 µM
CO[C@H]1/C=C/O[C@@]2(C)Oc3c(C)c(O)c4c(O)c(c(/C=N/N5CCN(C)CC5)c(O)c4c3C2=O)NC(=O)/C(C)=C\C=C\[C@H](C)[C@H](O)[C@@H](C)[C@@H](O)[C@@H](C)[C@H](OC(C)=O)[C@@H]1C ; strain: INH-r ; method: resazurin ; endpoint: MIC ; value: 0.05–0.1 µg/mL
O=C(/C=C/C(=O)N1C/C(=C\c2ccccc2)C(=O)/C(=C/c2ccccc2)C1)Nc1ccc(Cl)c(Cl)c1 ; strain: H37Rv ; endpoint: EC50 ; value: <6.25 µg/mL
c1ccc(Oc2ccc(-c3nnc(-c4ccncc4)o3)cc2)cc1 ; strain: H37Rv ; method: resazurin ; endpoint: MIC ; value: 1.4 µg/mL